PubChem BioAssay AID624099 – ICCB-Longwood | 2012
Assay: 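Human genes that papillomavirus E2 requires to repress the HPV18 LCR promoter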 (primary screen). Cell system: human C33A cervical carcinoma cells (HPV-negative) stably expressing BPV1 E2 and an HPV18 LCR luciferase reporter. Knock-down reagent: siRNA pool against human genes, 40 nM. Timing: 72 h. Measurement: 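HPV18 LCR reporter light per well, converted to plate-wise z-scores that exclude control wells, and averaged over triplicate plates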. Scale: mean z-score and z-score: higher = stronger reporter signal, weaker E2 silencing. Active means: 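Mean z ≥ 2 together with z ≥ 2 in two or more of the three replicates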.
Shown is a random part of about 21,000 reagents tested. In the full data, 497 (2.4%) got an active call. 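Higher z means weaker E2 silencing; only reporter increases were scored, and knock-downs that hurt cell survival may mask genuine repressor factors.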 Reagent sequences are not shown.

{"Target gene": "CHIA", "mean z-score": 0.74, "z-score, replicate A": 0.48, "z-score, replicate B": 0.72, "z-score, replicate C": 1.02, "Call": "inactive"}
{"Target gene": "LDAH", "mean z-score": 0.66, "z-score, replicate A": 0.92, "z-score, replicate B": 0.29, "z-score, replicate C": 0.76, "Call": "inactive"}
{"Target gene": "FAM81B", "mean z-score": -0.82, "z-score, replicate A": -0.33, "z-score, replicate B": -0.79, "z-score, replicate C": -1.34, "Call": "inactive"}
{"Target gene": "SVEP1", "mean z-score": -1.4, "z-score, replicate A": -1.36, "z-score, replicate B": -1.48, "z-score, replicate C": -1.35, "Call": "inactive"}
{"Target gene": "SPICE1", "mean z-score": -0.85, "z-score, replicate A": -1.24, "z-score, replicate B": -0.74, "z-score, replicate C": -0.56, "Call": "inactive"}
{"Target gene": "ALG1L9P", "mean z-score": 0.77, "z-score, replicate A": 0.3, "z-score, replicate B": 1.03, "z-score, replicate C": 0.97, "Call": "inactive"}
{"Target gene": "STXBP2", "mean z-score": -0.61, "z-score, replicate A": -0.61, "z-score, replicate B": -0.62, "z-score, replicate C": -0.6, "Call": "inactive"}
{"Target gene": "ST13P4", "mean z-score": 0.47, "z-score, replicate A": 0.96, "z-score, replicate B": -0.02, "z-score, replicate C": 0.46, "Call": "inactive"}
{"Target gene": "LDC1P", "mean z-score": 1.26, "z-score, replicate A": 0.81, "z-score, replicate B": 1.08, "z-score, replicate C": 1.9, "Call": "inactive"}
{"Target gene": "AURKB", "mean z-score": -0.4, "z-score, replicate A": -0.34, "z-score, replicate B": -0.58, "z-score, replicate C": -0.26, "Call": "inactive"}
{"Target gene": "FMO4", "mean z-score": -0.84, "z-score, replicate A": -0.65, "z-score, replicate B": -0.89, "z-score, replicate C": -0.99, "Call": "inactive"}
{"Target gene": "ETV1", "mean z-score": 0.67, "z-score, replicate A": 0.96, "z-score, replicate B": 0.47, "z-score, replicate C": 0.59, "Call": "inactive"}
{"Target gene": "TMLHE", "mean z-score": 0.42, "z-score, replicate A": 0.47, "z-score, replicate B": 0.28, "z-score, replicate C": 0.52, "Call": "inactive"}
{"Target gene": "PROK1", "mean z-score": 0.07, "z-score, replicate A": -0.01, "z-score, replicate B": 0, "z-score, replicate C": 0.23, "Call": "inactive"}
{"Target gene": "COPE", "mean z-score": 1.37, "z-score, replicate A": 1.07, "z-score, replicate B": 1.27, "z-score, replicate C": 1.79, "Call": "inactive"}
{"Target gene": "RTP2", "mean z-score": 0.58, "z-score, replicate A": 0.62, "z-score, replicate B": 0.52, "z-score, replicate C": 0.58, "Call": "inactive"}
{"Target gene": "ZDHHC15", "mean z-score": -0.94, "z-score, replicate A": -0.8, "z-score, replicate B": -0.94, "z-score, replicate C": -1.07, "Call": "inactive"}
{"Target gene": "PSMG1", "mean z-score": -0.12, "z-score, replicate A": -0.33, "z-score, replicate B": -0.16, "z-score, replicate C": 0.14, "Call": "inactive"}
{"Target gene": "R3HDML", "mean z-score": -0.9, "z-score, replicate A": -0.8, "z-score, replicate B": -0.94, "z-score, replicate C": -0.95, "Call": "inactive"}
{"Target gene": "A4GNT", "mean z-score": -0.36, "z-score, replicate A": -0.48, "z-score, replicate B": -0.23, "z-score, replicate C": -0.36, "Call": "inactive"}
{"Target gene": "ZNF540", "mean z-score": 1.39, "z-score, replicate A": 1.24, "z-score, replicate B": 1.37, "z-score, replicate C": 1.55, "Call": "inactive"}

Part of the list above, limited to “mean z-score”.
ALG1L9P = 0.77
STXBP2 = -0.61
ST13P4 = 0.47
